Laboratory results: US12414935B2, “Compounds and methods for the treatment of parasitic diseases” (WASHINGTON UNIVERSITY, priority 2019, dated 2025)

What was measured:
C. parvum = C. parvum in vitro EC50 assay in ALI culture; type: cell-based; conditions: ratio of ALI EC50 (48 hr) to HCT8 EC50 (24 hr)
Protocol: In vitro assays measuring the EC50 value for C. parvum infection may be run to determine the efficacy of the compounds. For example, human ileocecal adenocarcinoma (HCT-8) cells can be obtained from ATCC and maintained in T-75 tissue culture flasks with RPMI 1640 medium with HEPES, sodium pyruvate (1 mM), and L-glutamine (ATCC) supplemented with 10% horse serum (ATCC) and 120 U/ml penicillin and 120 μg/ml streptomycin. Cells can be plated into 384-well, tissue culture-treated, black-walled, clearbottom microwell plates (BD Falcon) at a density of 8,850 cells/well and allowed to grow to confluence. The cells may then be inoculated with 5.5×10^3 primed C. parvum oocysts (Bunchgrass Farms, Deary, ID) suspended in inoculation medium (RPMI 1640 without horse serum). Oocysts may be primed for excystation by following a previously described protocol (J. Eukaryot. Microbiol. 46:56S-57S). Briefly, oocysts can be treated for 10 min with 10 mM HCl at 37° C., centrifuged, and treated with a 2 mM solution of sodium taurocholate (Sigma-Aldrich) in phosphate-buffered saline (PBS) with Ca^2+ and Mg^2+. The suspension can be incubated for 10 min at 16° C. and then diluted in inoculation medium and added to each well. Infected cells are incubated at 37° C. for 3 h, at which point an equal volume of growth medium containing 20% horse serum (total serum concentration of 10%) is produced. Compounds are diluted and assayed at fixed doses (e.g., 0.12, 0.37, 1.1, 3.3, and 10 μM, with each concentration, n=14) for the generation of EC50 curves. In the case of final EC50 curves, three wells are left uninfected but treated with each of the corresponding concentrations of the compound to assess for background staining. All curves are generated using the log[inhibitor] versus response variable slope equation in GraphPad Prism, with the bottom constraint set equal to 0.
Such assays were prepared on HTC-8 cells and ALI. Table 2 illustrates measured EC50 at various time points.
Briefly, i3T3 cells were plated in CM media. Spheroids were plated on the cells. […]

Cryptosporidium = conditions: cited from earlier work

| SMILES | Fold change (ALI-EC50/HCT8-EC50) (C. parvum) | Efficacy against cryptosporidiosis in children (Cryptosporidium; children) | Efficacy against cryptosporidiosis in patients with AIDS (Cryptosporidium; patients with AIDS, versus placebo) |
| --- | --- | --- | --- |
| COc1ccc(NC(=O)N2CCCCN3[C@H](CN(C)S(C)(=O)=O)[C@H](c4ccc(C#Cc5ccccc5)cc4)[C@@H]3C2)cc1 [Compound 1, (8R,9R,10S)-N-(4-methoxyphenyl)-10-((N-methylmethylsulfonamido)methyl)-9-(4-(phenylethynyl)phenyl)-1,6-diazabicyclo[6.2.0]decane-6-carboxamide] | 2.5 |  |  |
| COc1ccc(NC(=O)N2CCCCN3[C@H](CN(C)C)[C@H](c4ccc(C#Cc5ccccc5)cc4)[C@@H]3C2)cc1 [Compound 2, (8R,9S,10S)-10-((dimethylamino)methyl)-N-(4-methoxyphenyl)-9-(4-(phenylethynyl)phenyl)-1,6-diazabicyclo[6.2.0]decane-6-carboxamide] | 3.4 |  |  |
| CC(=O)Oc1ccccc1C(=O)Nc1ncc([N+](=O)[O-])s1 [Nitazoxanide, reference compound] | 11.8 | partial efficacy | no more effective than placebo |
